PubChem BioAssay AID1259414, Drosophila RNAi Screening Center | 2018
The screen tested about 24,000 reagents; below is a random part of those with a known target gene and a result. In the full data, about 1,210 (5%) got an active call. 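Inactive calls also include excluded dsRNAs with several or no targets, genes unexpressed in JW18, and well A1, regardless of score.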 A number with no mark means an inactive call. No sequences are given here.

- Assay: 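Genome-wide screen for host control of endosymbiont load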 (primary screen)
- System: Drosophila JW18 cells infected with Wolbachia
- Knock-down reagent: long dsRNA against Drosophila genes, 0.25 µg dsRNA per well of a 384-well plate
- Timing: 5 days
- Conditions: cells persistently infected with Wolbachia before knock-down; no added drug
- Measurement: 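Imaged fluorescence in situ signal for Wolbachia 23S rRNA per DAPI-counted host cell, given as a robust z-score within each plate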
- Scale: Wolbachia per cell robust z: higher = more Wolbachia per host cell than the plate typical
- Hit rule: 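Hit when robust z is 1.5 or more, or -1.5 or less, in at least two of three replicates; excludes dsRNAs with several or no targets, genes not expressed in JW18 and well A1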

ckd [DRSC08418]: Wolbachia per cell robust z, rep 1 = -3.64; Wolbachia per cell robust z, rep 2 = 1.36; Wolbachia per cell robust z, rep 3 = -2.83
ppk28 [DRSC19919]: Wolbachia per cell robust z, rep 1 = 0.366; Wolbachia per cell robust z, rep 2 = -0.763; Wolbachia per cell robust z, rep 3 = -3.92
CG8191 [DRSC20091]: Wolbachia per cell robust z, rep 1 = -0.147; Wolbachia per cell robust z, rep 2 = 0.915; Wolbachia per cell robust z, rep 3 = 0.263
IntS9 [DRSC10493]: Wolbachia per cell robust z, rep 1 = 0.352; Wolbachia per cell robust z, rep 2 = -1.8; Wolbachia per cell robust z, rep 3 = -0.772
IntS9 [DRSC28991]: Wolbachia per cell robust z, rep 1 = 0.795; Wolbachia per cell robust z, rep 2 = 0.888; Wolbachia per cell robust z, rep 3 = 0.738
Kah [DRSC07887]: Wolbachia per cell robust z, rep 1 = -0.318; Wolbachia per cell robust z, rep 2 = 0.887; Wolbachia per cell robust z, rep 3 = 0.39
Kah [DRSC08515]: Wolbachia per cell robust z, rep 1 = 0.6; Wolbachia per cell robust z, rep 2 = 0.282; Wolbachia per cell robust z, rep 3 = -0.599
Kah [DRSC25608]: Wolbachia per cell robust z, rep 1 = -0.784; Wolbachia per cell robust z, rep 2 = -0.762; Wolbachia per cell robust z, rep 3 = -0.12

Targets above whose target name starts with I or i:
IntS9 [DRSC10493]: Wolbachia per cell robust z, rep 1 = 0.352; Wolbachia per cell robust z, rep 2 = -1.8; Wolbachia per cell robust z, rep 3 = -0.772
IntS9 [DRSC28991]: Wolbachia per cell robust z, rep 1 = 0.795; Wolbachia per cell robust z, rep 2 = 0.888; Wolbachia per cell robust z, rep 3 = 0.738

Additional entries:
ref(2)P [DRSC03601]: Wolbachia per cell robust z, rep 1 = -0.135; Wolbachia per cell robust z, rep 2 = 0.599; Wolbachia per cell robust z, rep 3 = 0.336
ref(2)P [DRSC40817]: Wolbachia per cell robust z, rep 1 = -0.821; Wolbachia per cell robust z, rep 2 = -0.309; Wolbachia per cell robust z, rep 3 = -1.77
CG34038 [DRSC38892]: Wolbachia per cell robust z, rep 1 = -0.196; Wolbachia per cell robust z, rep 2 = -3.84; Wolbachia per cell robust z, rep 3 = -5.5
CG4161 [DRSC01930]: Wolbachia per cell robust z, rep 1 = -0.404; Wolbachia per cell robust z, rep 2 = -0.174; Wolbachia per cell robust z, rep 3 = 0.526
CG4161 [DRSC26020]: Wolbachia per cell robust z, rep 1 = 0.47; Wolbachia per cell robust z, rep 2 = -0.156; Wolbachia per cell robust z, rep 3 = -0.959
